Vif 1203: effect of single changes on growth against APOBEC3G

Data from the supplement of Langley et al. 2025, preprint, doi:10.1101/2025.10.20.683452.

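A pool of vif mutants was passaged twice, 72 h each, on SupT1 cells that express APOBEC3G. Each of three replicates was sequenced after round two and set against the merged round-one pool.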

Vif of 1203 (a subtype B primary isolate), residues 12-115; positions count from the first residue of the whole protein:
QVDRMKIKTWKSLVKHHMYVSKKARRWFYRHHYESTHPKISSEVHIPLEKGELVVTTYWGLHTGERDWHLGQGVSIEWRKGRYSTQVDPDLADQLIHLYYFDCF

The score is log2 enrichment against the wild-type codon: higher is better tolerated, lower is depleted. Substitutions are written as wild-type residue, site number, new residue. This list holds changes to aspartate only. The median of three replicates is given. Input reads are the counts in the merged round-one pool, before selection. Replicates agree only moderately (rank correlation about 0.4-0.65); scores from under about 50 input reads tend to be too high.

K19D (input reads 723): -2.05.
T20D (input reads 254): -2.11.
L24D (input reads 1810): -1.50.
V25D (input reads 46): -1.64.
H27D (input reads 121): -0.38.
V31D (input reads 1096): -0.78.
K33D (input reads 55): 3.03.
A35D (input reads 42): -0.09.
R36D (input reads 1185): -0.08.
R37D (input reads 39): 4.07.
W38D (input reads 247): -2.14.
F39D (input reads 2325): -1.99.
R41D (input reads 446): -2.15.
H43D (input reads 58): 3.74.
Y44D (input reads 22): -1.56.
H48D (input reads 317): -2.47.
P49D (input reads 328): -3.10.
K50D (input reads 375): -2.39.
E60D (input reads 33): 0.37.
G62D (input reads 39): -1.09.
V66D (input reads 57): -4.28.
T67D (input reads 205): -3.10.
T68D (input reads 219): -1.81.
L72D (input reads 115): -3.70.
H73D (input reads 649): -2.73.
G75D (input reads 24): 0.18.
E76D (input reads 166): -2.80.
G82D (input reads 66): -0.62.
G84D (input reads 488): -1.62.
V85D (input reads 21): -2.85.
E88D (input reads 47): -0.54.
G92D (input reads 195): -2.99.
Y94D (input reads 818): -3.22.
S95D (input reads 75): 3.23.
Q97D (input reads 42): 3.20.
V98D (input reads 147): -2.93.
L102D (input reads 216): -3.17.
L106D (input reads 20): 4.17.
H108D (input reads 32): -1.12.
Y111D (input reads 317): -2.38.
F112D (input reads 27): 4.13.
C114D (input reads 583): -1.51.

Positive scores are uncertain; some enriched variants did not exclude APOBEC3G in a separate test. Some changes are missing from the data or left out.